From patent US10189878B2, “Ebolavirus pre-hairpin intermediate mimics and methods of use” (priority 2014, dated 2019)

Columns and labels:
D-eboIZN39IQ(D3) = D-eboIZN39IQ(D3) (Zaire ebolavirus, UniProt Q05320, A568D/A575D/A589D); details: SPR Biacore 3000
eboIZN39IQ = eboIZN39IQ (Zaire ebolavirus, UniProt Q05320); assay: SPR binding of ebolavirus C-peptides to N-trimer mimic eboIZN39IQ (ProteOn XPR36); details: SPR kinetic fit, pH 5.8, RT

## CC[C@@H](C)[C@@H](NC(=O)[C@@H](C)NC(=O)[C@@H](CS)NC(=O)[C@@H](CC(=O)O)NC(=O)[C@H]1CCCN1C(=O)CNC(=O)[C@@H](CC(C)C)NC(=O)[C@H](NC(=O)[C@@H](Cc1c[nH]cn1)NC(=O)[C@@H](CS)NC(=O)[C@H](NC(=O)CNC(=O)CNC(=O)[C@@H](Cc1c[nH]c2ccccc12)NC(C)=O)[C@H](C)O)[C@H](C)CC)C(=O)N[C@H](CCC(=O)O)C(=O)N1CCC[C@@H]1C(=O)N[C@H](Cc1c[nH]cn1)C(=O)N[C@H](CC(=O)O)C(=O)N[C@H](Cc1c[nH]c2ccccc12)C(=O)N[C@@H](C(=O)N[C@H](CCCCN)C(=O)N[C@H](CC(N)=O)C(=O)N[C@@H](C(=O)N[C@@H](C(=O)N[C@H](CC(=O)O)C(=O)N[C@H](CCCCN)C(=O)N[C@@H](C(=O)N[C@H](CC(=O)O)C(=O)N[C@H](CCC(N)=O)C(=O)N[C@@H](C(=O)N[C@@H](C(=O)N[C@H](Cc1c[nH]cn1)C(=O)N[C@H](CC(=O)O)C(=O)N[C@H](Cc1ccccc1)C(=O)N[C@@H](C(=O)N[C@H](CC(=O)O)C(=O)N[C@H](CCCCN)C(N)=O)C(C)C)[C@H](C)CC)[C@H](C)CC)[C@H](C)CC)[C@H](C)O)[C@H](C)CC)[C@H](C)O
D-eboIZN39IQ(D3)
  Binding to D-eboIZN39IQ(D3): No binding

## CC[C@H](C)[C@H](NC(=O)[C@H](C)NC(=O)[C@H](CS)NC(=O)[C@H](CC(=O)O)NC(=O)[C@@H]1CCCN1C(=O)CNC(=O)[C@H](CC(C)C)NC(=O)[C@@H](NC(=O)[C@H](Cc1c[nH]cn1)NC(=O)[C@H](CS)NC(=O)[C@@H](NC(=O)CNC(=O)CNC(=O)[C@H](Cc1c[nH]c2ccccc12)NC(C)=O)[C@@H](C)O)[C@@H](C)CC)C(=O)N[C@@H](CCC(=O)O)C(=O)N1CCC[C@H]1C(=O)N[C@@H](Cc1c[nH]cn1)C(=O)N[C@@H](CC(=O)O)C(=O)N[C@@H](Cc1c[nH]c2ccccc12)C(=O)N[C@H](C(=O)N[C@@H](CCCCN)C(=O)N[C@@H](CC(N)=O)C(=O)N[C@H](C(=O)N[C@H](C(=O)N[C@@H](CC(=O)O)C(=O)N[C@@H](CCCCN)C(=O)N[C@H](C(=O)N[C@@H](CC(=O)O)C(=O)N[C@@H](CCC(N)=O)C(=O)N[C@H](C(=O)N[C@H](C(=O)N[C@@H](Cc1c[nH]cn1)C(=O)N[C@@H](CC(=O)O)C(=O)N[C@@H](Cc1ccccc1)C(=O)N[C@H](C(=O)N[C@@H](CC(=O)O)C(=O)N[C@@H](CCCCN)C(N)=O)C(C)C)[C@@H](C)CC)[C@@H](C)CC)[C@@H](C)CC)[C@@H](C)O)[C@@H](C)CC)[C@@H](C)O
eboIZN39IQ
  kd for binding to eboIZN39IQ: 0.014 s⁻¹
